Measured values from several laboratories, pooled; numbers as filed in NIAID ChemDB.

All rows: whole-cell or culture tests; organism: Mycobacterium fortuitum; measure: MIC50

Rows are shuffled and stem from different studies. a–b is a range or a potency band. A number after MIC or MFC names an inhibition level or a share of isolates.

{"compound": "CCCN1CCN(c2cc(=O)c3nc4c(oc3c2)c2c(=O)c3c(O)c(C)c5c(c34)=C(O)[C@@](C)(O/C=C/[C@H](OC)[C@@H](C)[C@@H](OC(C)=O)[C@H](C)[C@H](O)[C@H](C)[C@@H](O)[C@@H](C)/C=C/C=C(/C)C(=O)N2)O5)CC1", "strain": "20 strains", "result": "25 µg/mL"}
{"compound": "CCn1cc(C(=O)O)c(=O)c2cc(F)c(N3CCNCC3)cc21", "result": "0.5 µg/mL"}
{"compound": "CO[C@H]1/C=C/O[C@@]2(C)Oc3c(C)c(O)c4c(O)c(c(/C=N/N5CCN(C)CC5)c(O)c4c3C2=O)NC(=O)/C(C)=C\\C=C\\[C@H](C)[C@H](O)[C@@H](C)[C@@H](O)[C@@H](C)[C@H](OC(C)=O)[C@@H]1C", "result": ">8 µg/mL"}
{"compound": "CC1COc2c(N3CCN(C)CC3)c(F)cc3c(=O)c(C(=O)O)cn1c23", "result": "0.2–1.2 µg/mL"}
{"compound": "CN[C@@H]1[C@H](O)[C@H](NC)[C@H]2O[C@@]3(O)C(=O)C[C@@H](C)O[C@H]3O[C@@H]2[C@H]1O", "strain": "31 isolates", "result": ">64 µg/mL"}
{"compound": "CC1CN(c2cc3c(cc2F)c(=O)c(C(=O)O)cn3-c2ccc(F)cc2F)CCN1", "strain": "19 strains", "result": "0.125 µg/mL"}
{"compound": "NC1CCN(c2nc3c(cc2F)c(=O)c(C(=O)O)cn3-c2ccc(F)cc2F)C1", "strain": "25 isolates", "result": "4 µg/mL"}
{"compound": "CO[C@H]1/C=C/O[C@@]2(C)Oc3c(C)c(O)c4c(O)c(c5c(c4c3C2=O)NC2(CCN(CC(C)C)CC2)N=5)=NC(=O)/C(C)=C\\C=C\\[C@H](C)[C@H](O)[C@@H](C)[C@@H](O)[C@@H](C)[C@H](OC(C)=O)[C@@H]1C", "strain": "20 strains", "result": "3.13 µg/mL"}
{"compound": "CO[C@@]1(NC(=O)Cc2cccs2)C(=O)N2C(C(=O)O)=C(COC(N)=O)CS[C@@H]21", "strain": "18 strains", "result": "32 µg/mL"}
{"compound": "CN[C@@H]1[C@@H](O)[C@@H](O[C@@H]2[C@@H](O)[C@H](O[C@H]3O[C@H](CN)CC[C@H]3N)[C@@H](N)C[C@H]2N)OC[C@]1(C)O", "strain": "31 isolates", "result": "8 µg/mL"}
{"compound": "CC[C@H]1OC(=O)[C@H](C)[C@@H](O[C@H]2C[C@@](C)(OC)[C@@H](O)[C@H](C)O2)[C@H](C)[C@@H](O[C@@H]2O[C@H](C)C[C@H](N(C)C)[C@H]2O)[C@](C)(OC)C[C@@H](C)C(=O)[C@H](C)[C@@H](O)[C@]1(C)O", "strain": "48 strains", "result": "16 µg/mL"}
{"compound": "O=C(O)c1cn(-c2ccc(F)cc2)c2cc(N3CCNCC3)c(F)cc2c1=O", "strain": "19 strains", "result": "0.5 µg/mL"}
{"compound": "CCn1cc(C(=O)O)c(=O)c2cc(F)c(N3CCNCC3)cc21", "strain": "80 strains", "result": "1 µg/mL"}
{"compound": "C[C@H]1NCc2cc(-c3ccc4c(=O)c(C(=O)O)cn(C5CC5)c4c3OC(F)F)ccc21", "strain": "10 strains", "result": "0.13 µg/mL"}
{"compound": "CC(=O)O[C@H]1C[C@@]2(C)[C@@H](C[C@@H](O)[C@H]3[C@@]4(C)CC[C@@H](O)[C@@H](C)[C@@H]4CC[C@@]32C)/C1=C(\\CCC=C(C)C)C(=O)O", "strain": "19 strains", "result": "64 µg/mL"}
{"compound": "CN(C)[C@@H]1C(=O)C(C(N)=O)=C(O)[C@@]2(O)C(=O)C3=C(O)c4c(O)cccc4[C@@](C)(O)[C@H]3C[C@@H]12", "result": ">64 µg/mL"}
{"compound": "CCn1cc(C(=O)O)c(=O)c2cc(F)c(N3CCNCC3)nc21", "strain": "19 strains", "result": "0.5 µg/mL"}
{"compound": "CO[C@H]1/C=C/O[C@@]2(C)Oc3c(C)c(O)c4c(O)c(c(/C=N/N5CCN(C6CCCC6)CC5)c(O)c4c3C2=O)NC(=O)/C(C)=C\\C=C\\[C@H](C)[C@H](O)[C@@H](C)[C@@H](O)[C@@H](C)[C@H](OC(C)=O)[C@@H]1C", "strain": "48 strains", "result": "0.12 µg/mL"}
{"compound": "CC[C@@H](CO)NCCN[C@@H](CC)CO", "result": "32 µg/mL"}

Repeating the first 2 entries:

CCCN1CCN(c2cc(=O)c3nc4c(oc3c2)c2c(=O)c3c(O)c(C)c5c(c34)=C(O)[C@@](C)(O/C=C/[C@H](OC)[C@@H](C)[C@@H](OC(C)=O)[C@H](C)[C@H](O)[C@H](C)[C@@H](O)[C@@H](C)/C=C/C=C(/C)C(=O)N2)O5)CC1 ; strain: 20 strains ; result: 25 µg/mL
CCn1cc(C(=O)O)c(=O)c2cc(F)c(N3CCNCC3)cc21 ; result: 0.5 µg/mL